Anti-infective test results gathered from many reports (values: NIAID ChemDB through PubChem).

Common to all: host cell toxicity; cells: VERO; measure: CC50

Conditions beyond the fields shown may differ between rows. Blank or dashed fields: not listed here. CCn: concentration that lowers growth or viability of the cells by n%.

SMILES	method	result
Nc1ccn([C@@H]2O[C@@H](CO)[C@H](O)C2(F)F)c(=O)n1	-	>100 µM
Cc1ccn2c(C(=O)NCc3ccc(N4CCC5(CC4)OCC(C)CO5)c(F)c3)c(C)nc2c1	-	>32 µM
Nc1nc2c(ncn2COC(CO)CO)c(=O)[nH]1	-	500 µM
CCCCCCCCCCCCCC(=O)Nc1nc(N)nc2c1ncn2[C@H]1CO[C@@H](COP(=O)(N[C@@H](C)C(=O)OCC)Oc2ccccc2)O1	-	13 µM
Cc1ccc2nc(C(F)(F)F)c(C(=O)NCc3ccc4c(c3)CCO4)n2c1	-	>32 µM
Cn1c2c(c(=O)n(C)c1=O)S[C@H]1[C@@H](O2)O[C@H](CO)[C@@H](O)[C@@H]1O	-	>100 µM
Cc1ccn2c(C(=O)NCc3ccc(N4CCN(c5ccc(C(F)(F)F)cc5)CC4)c(F)c3)c(C)nc2c1	-	>32 µM
Nc1nc(Cl)nc2c1ncn2[C@@H]1O[C@H](CO)[C@@H](F)[C@@H]1F	-	>100 µM
CCc1nc2ccc(C)cc2n1CCCNc1ccccc1	luminescence	>50 µM
CC#Cc1cn([C@@H]2O[C@H](COP(=O)(O)OCC(Cl)(Cl)Cl)[C@@H](O)[C@@H]2O)c(=O)[nH]c1=O	-	185 µM
O=C(c1ccccc1)c1nc2cc(Cl)ccc2s1	-	31 µg/mL
CCc1nc2ccc(C)cc2n1CCCCNc1ccc(OC)cc1	luminescence	14 µM
Cc1ccn2c(C(=O)NCc3ccc(N4CCC(c5ccc(C(F)(F)F)cc5)CC4)nc3)c(C)nc2c1	-	>32 µM
CC#Cc1cn([C@@H]2O[C@H](COP(=O)(O)Oc3ccc(F)cc3)[C@@H](O)[C@@H]2O)c(=O)[nH]c1=O	-	>500 µM
CCc1nc2cc(C)ccn2c1C(=O)NCc1cccc(S(F)(F)(F)(F)F)c1	-	>32 µM
O=CNCCCC[C@@H](NC(=O)[C@@H]1COC(c2ccccc2O)=N1)C(=O)O	-	>64 µg/mL
C[C@@]1(O)[C@H](O)[C@@H](COP(=O)(O)OP(=O)(O)OP(=O)(O)O)O[C@H]1n1ccc2c(N)ncnc21	-	250 µM
CCOC(=O)c1cc(-c2ccc(CO)cc2)on1	-	>128 µM
C#Cc1cnc(OC(=O)c2ccccc2)nc1OC(=O)c1ccccc1	trypan blue	>100 µM
CCCCCC(=O)Nc1nc(N)nc2c1ncn2[C@H]1CO[C@@H](COP(=O)(N[C@@H](C)C(=O)OCC)Oc2ccccc2)O1	-	>100 µM
CCc1nc2ccccc2n1CCCNc1ccc(C)c(C)c1	luminescence	>100 µM
CCCCC(O)c1c(-c2ccccc2)c(-c2ccccc2)n2ccc(C#N)cc12	-	7.56 µg/mL
Nc1ccn([C@H]2O[C@@H](CO)C=C2F)c(=O)n1	-	>100 µM
Cc1ccccc1NC(=O)c1c(C)n([O-])c2ccc(Cl)cc2[n+]1=O	-	>62.5 µg/mL
COc1ccc(OCc2nn3c(-c4ccc(Br)cc4)nnc3s2)cc1	resazurin	64.22 µM
O=C(N/C(C(=O)N1CCCCC1)=C(/Cl)c1ccccc1)c1ccccc1	-	>81 µM
COc1ccc(/C=N/N=C(/N)NO)c(OC)c1OC.Cc1ccc(S(=O)(=O)O)cc1	-	50 µM
Cc1ccn2c(C(=O)NCc3ccc(N4CCC(NC(=O)OC(C)(C)C)CC4)c(F)c3)c(C)nc2c1	-	>32 µM
CC(=O)O[C@@H]1[C@@H](OC(C)=O)[C@H](C)O[C@@H]2Oc3c(c(=O)n(C)c(=O)n3C)S[C@@H]21	-	>100 µM
OC(c1ccccc1)c1nc2ccccc2o1	-	125 µg/mL
O=c1nc2c(ncn2Cc2ccccc2)c(C#Cc2ccccc2)n1Cc1ccccc1	-	<0.2 µg/mL
CCc1nc2ccc(C)cc2n1CCCCSc1ccc(Cl)cc1	luminescence	16 µM
Nc1ccn([C@@H]2C=C(F)[C@H](CO)O2)c(=O)n1	-	>100 µM
CC(C)=CCC/C(C)=C/CNCCNC(c1ccccc1)c1ccccc1	MTS	21 µM
CC#Cc1cn([C@@H]2O[C@H](COP(=O)(O)Oc3ccccc3Cl)[C@@H](O)[C@@H]2O)c(=O)[nH]c1=O	-	305 µM
CCc1nc2ccc(C)cc2n1CCCCNc1cccc(C(F)(F)F)c1	luminescence	5.7 µM
CC#Cc1cn([C@@H]2O[C@H](COP(=O)(O)OCCCCCCCCCCCC)[C@@H](O)[C@@H]2O)c(=O)[nH]c1=O	-	131 µM
COc1cc(O)c2c(=O)c3cccc(OC)c3[nH]c2c1	-	>50 µM
OC(c1ccccc1)c1nc2cc(Cl)ccc2o1	-	62 µg/mL
Nc1ncnc2c1ncn2[C@H]1O[C@H](CO)[C@@H](F)[C@@H]1F	-	>100 µM
Clc1ccc(-c2nnc3sc(COc4ccc(Br)cc4)nn23)cc1	resazurin	92.31 µM
O=C1NC(NNC(=O)c2ccncc2)=N/C1=C\c1ccc(Cl)cc1	-	34.51 µg/mL
Cc1c(C(=O)NC(C)(C)C)[n+](=O)c2cc(Cl)c(Cl)cc2n1[O-]	-	>10 µg/mL
CCC1CCC2(CC1)SC(C)C(=O)N2NC(=O)Cc1csc2nc(-c3ccc(Cl)cc3)cn12	-	5.5 µg/mL
O=C(CN1CCN(c2cc3c(cc2F)c(=O)c(C(=O)O)cn3C2CC2)CC1)c1ccc(F)cc1	-	>10 µg/mL
CCC1CCC2(CC1)SCC(=O)N2NC(=O)Cc1csc2nc(-c3ccccc3)cn12	-	>10 µg/mL
O=[N+]([O-])c1ccc(OCc2nn3c(-c4ccc(Br)cc4)nnc3s2)cc1	resazurin	243.9 µM
Cn1c2c(c(=O)n(C)c1=O)S[C@H]1[C@@H](O2)O[C@H](COc2ccccc2)[C@@H](OCc2ccccc2)[C@@H]1OCc1ccccc1	-	>100 µM
COc1cc(OC)c(/C=N/N=C(/N)NO)c(OC)c1.Cc1ccc(S(=O)(=O)O)cc1	-	100 µM
CC1SC2(CCCCC2)N(NC(=O)Cc2csc3nc(-c4ccccc4)cn23)C1=O.O.O	-	>10 µg/mL
O=C1NC(=Nc2ccc(Cl)cc2Cl)N/C1=C\c1ccc(Cl)cc1Cl	-	23 µg/mL
CCCCCCCC(=O)Nc1nc(N)nc2c1ncn2[C@H]1CO[C@@H](COP(=O)(N[C@@H](C)C(=O)OCC)Oc2ccccc2)O1	-	87 µM
COc1ncc(C#C[Si](C)(C)C)c(OC)n1	trypan blue	>100 µM
Cc1cn([C@@H]2O[C@H](CO)[C@](O)(C(F)(F)F)[C@H]2O)c(=O)[nH]c1=O	-	>200 µg/mL
CC#Cc1cn([C@@H]2O[C@H](COP(=O)(N[C@@H](C)C(=O)OC)Oc3ccccc3)[C@@H](O)[C@@H]2O)c(=O)[nH]c1=O	-	>500 µM
CC(C)(C)C(O)c1c(-c2ccccc2)c(-c2ccccc2)n2ccc(C#N)cc12	-	5.99 µg/mL
O=C(CN1CCN(c2cc3c(cc2F)c(=O)c(C(=O)O)cn3C2CC2)CC1)c1ccc(Br)cc1	-	6.5 µg/mL
Fc1ccc(-c2nnc3sc(COc4ccccc4)nn23)cc1	resazurin	23.17 µM
O=C1NC(NNC(=O)c2ccncc2)=N/C1=C\c1cccc(Cl)c1	-	>62.5 µg/mL
Nc1ncnc2c1ncn2[C@@H]1O[C@H](CO)[C@](O)(C(F)(F)F)[C@H]1O	-	>200 µg/mL
CCCCCCCCCCCCCCCC(=O)Nc1nc(N)nc2c1ncn2[C@H]1CO[C@@H](COP(=O)(N[C@@H](C)C(=O)OCC)Oc2ccccc2)O1	-	>100 µM
CCc1nc2ccc(Cl)cn2c1C(=O)NCc1ccc(NCCN2CCOCC2)c(F)c1	-	>32 µM
CC(O)(c1ccccc1)c1nc2cc(Cl)ccc2o1	-	250 µg/mL
c1ccc(C(CNCCNCC23CC4CC(CC(C4)C2)C3)c2ccccc2)cc1	MTS	32 µM
CCOC(=O)c1cc(CNc2cccc(OC(F)(F)F)c2)on1	-	>128 µM
O=C(O)c1cn(C2CC2)c2cc(N3CCN(C/C(=N/O)c4ccccc4)CC3)c(F)cc2c1=O	-	>10 µg/mL
Nc1ccn([C@H]2S[C@@H](CO)C=C2F)c(=O)n1	-	>100 µM
CCOC(=O)c1cc(CNc2cc(C(F)(F)F)nc3c(C(F)(F)F)cccc23)on1	-	>128 µM
CCc1nc2ccc(C)cc2n1CCCNc1ccc(C)cc1	luminescence	31 µM
CCOC(=O)[C@H](C)NP(=O)(OC[C@@H]1OC[C@H](n2cnc3c(N)nc(N)nc32)O1)Oc1ccccc1	-	>100 µM
Cc1ccc(C(=O)CN2CCN(c3cc4c(cc3F)c(=O)c(C(=O)O)cn4C3CC3)CC2)cc1	-	>10 µg/mL
C=Cc1c(C)c2cc3nc(c(C(=O)O)c4nc(cc5[nH]c(cc1[nH]2)c(C)c5CC)C(C)=C4C(=O)O)[C@@H](CCC(=O)O)[C@@H]3C	-	>100 µM
Cc1ccn2c(C(=O)NCc3ccc4c(c3)CCO4)c(C)nc2c1	-	>32 µM
O=CNCCCC[C@H](NC(=O)[C@@H]1COC(c2ccccc2O)=N1)C(=O)O	-	>64 µg/mL
CCCCC1C(=O)N(c2ccccc2)N(c2ccc(O)cc2)C1=O	MTS	>200 µM
CCOC(=O)c1cc(CN(C)c2ccc(C(F)(F)F)cc2)on1	-	>128 µM
COc1ncc(I)c(OC)n1	trypan blue	>100 µM
N#Cc1ccn2c(-c3ccccc3)c(-c3ccccc3)c(C(O)c3ccccc3)c2c1	-	>10 µg/mL

A second listing of 7 rows from above:

SMILES	method	result
CC#Cc1cn([C@@H]2O[C@H](COP(=O)(O)OCCCCCCCCCCCC)[C@@H](O)[C@@H]2O)c(=O)[nH]c1=O	-	131 µM
C#Cc1cnc(OC(=O)c2ccccc2)nc1OC(=O)c1ccccc1	trypan blue	>100 µM
Nc1ccn([C@@H]2O[C@@H](CO)[C@H](O)C2(F)F)c(=O)n1	-	>100 µM
Cc1ccn2c(C(=O)NCc3ccc(N4CCC(c5ccc(C(F)(F)F)cc5)CC4)nc3)c(C)nc2c1	-	>32 µM
CCc1nc2ccc(C)cc2n1CCCCNc1cccc(C(F)(F)F)c1	luminescence	5.7 µM
CCCCC(O)c1c(-c2ccccc2)c(-c2ccccc2)n2ccc(C#N)cc12	-	7.56 µg/mL
O=C(N/C(C(=O)N1CCCCC1)=C(/Cl)c1ccccc1)c1ccccc1	-	>81 µM